The values below come from publication PMC1361355, “Two Key Residues in EphrinB3 Are Critical for Its Use as an Alternative Receptor for Nipah Virus” (2006).

Read-outs that look alike come from different tables or passages of the source.

The target of assay [1] is soluble EphB3 (EphB3-Fc) (UniProt P54753). The experiment in a line: flow cytometry on cells. The conditions noted are these: 10 μg/ml EphB3-Fc, read off a plot.
Assay [2] has the same target.
The target in assay [3] is human ephrinB1 stably expressed on CHO-pgsA745 cells (CHO-B1) (human) (UniProt P98172).
Assay [4] has as its target human ephrinB3 stably expressed on CHO-pgsA745 cells (CHO-B3) (human) (UniProt Q15768).

With “human ephrinB1 stably expressed on CHO-pgsA745 cells (CHO-B1) (from UniProt P98172) Y→L; M→W (G–H loop Y–M of ephrinB1; positions not printed)”, the response with soluble EphB3 (EphB3-Fc) [1] (parent: est. 69) amounted to 62%.

For the substance “human ephrinB2 stably expressed on CHO-pgsA745 cells (CHO-B2) (from UniProt P52799) L124Y; W125M”, the response in the assay with soluble EphB3 (EphB3-Fc) [1] (parent: est. 47) is 50%.

For “human ephrinB3 stably expressed on CHO-pgsA745 cells (CHO-B3) (from UniProt Q15768) L124Y; W125M”, the response in the assay with soluble EphB3 (EphB3-Fc) [2] is 32%.

For the substance “soluble EphB3 (EphB3-Fc) (from UniProt P54753 34-559)”, the percent of cells positive for binding turned out to be 68% in assay [3] and 47% in assay [4].
